{"source": "patent US20240197701A1", "about": "“ANDROGEN RECEPTOR INHIBITION TO TREAT SEPSIS AND SHOCK” (priority 2021, published 2024)", "tested_on": "COVID-19", "experiment": "Randomized, double-blind, placebo-controlled trial of proxalutamide in hospitalized COVID-19 patients (NCT04728802)", "conditions": "among males taking proxalutamide", "data": [{"substance": "proxalutamide", "values": [{"measurement": "Spontaneous erection", "result": 2.2, "unit": "%"}]}]}
